Results of unrelated studies side by side (data: NIAID ChemDB).

All rows: growth or infection tests; organism: HIV-1; read by: p24 / ELISA; measure: EC50

Conditions beyond the fields shown may differ between rows. An empty or dashed field is not shown. ECn is the concentration giving n% inhibition of infection, replication or growth. a–b is a range or a potency band.

structure	strain or isolate	changes	cell line	result
COCCOCC(=O)O[C@H](C)[C@@H](CN[C@]12CC[C@@H](C3(C)CC3)[C@@H]1[C@H]1CC[C@@H]3[C@@]4(C)CC[C@H](OC(=O)[C@H]5C[C@@H](C(=O)O)C5(C)C)C(C)(C)[C@@H]4CC[C@@]3(C)[C@]1(C)CC2)N1CCS(=O)(=O)CC1	NL4-3	V7A	MT-4	<0.05 µM
CCC1=C(C(=O)OCC2CCCCC2)[C@H](c2cccc(OC(=O)[C@H](C)[NH3+])c2)NC(=O)N1	-	-	CEM	≤1 µM
C[C@H](O)[C@H](CN[C@]12CC[C@@H](C3(C)CC3)[C@@H]1[C@H]1CC[C@@H]3[C@@]4(C)CC[C@H](OC(=O)[C@H]5C[C@@H](C(=O)O)C5(C)C)C(C)(C)[C@@H]4CC[C@@]3(C)[C@]1(C)CC2)N1CCS(=O)(=O)CC1	NL4-3	-	MT-2	<0.01 µM
CCN1C(=O)NC(=O)C(C(C)C)C1CC1CC(C)CC(C#N)C1=O	-	V106M	C8166	0.09031 µM
CC1([C@@H]2CC[C@]3(NC[C@H](C(=O)O)N4CCS(=O)(=O)CC4)CC[C@]4(C)[C@H](CC[C@@H]5[C@@]6(C)CC[C@H](OC(=O)[C@H]7C[C@@H](C(=O)O)C7(C)C)C(C)(C)[C@@H]6CC[C@]54C)[C@@H]23)CC1	NL4-3	-	MT-4	>0.05 µM
CC(C)C1=C2[C@H]3CC[C@@H]4[C@@]5(C)CC[C@H](OC(=O)[C@H]6C[C@@H](C(=O)O)C6(C)C)C(C)(C)[C@@H]5CC[C@@]4(C)[C@]3(C)CC[C@@]2(CC(=O)NC[C@H]2CCCNC2)CC1=O	92HT599	-	MT-2	<1 µM
Cc1cc(C)cc(Cc2c(I)c(=O)[nH]c(=O)n2COCc2ccccc2)c1	SF33	V106I	TZM-bl	0.014 µM
CCC1=C(C(=O)OCC2CCCCC2)C(c2cc(O)ccc2F)NC(=O)N1	-	-	CEM	≤1 µM
Cc1cccc(C(=O)NC(C)(C)C(=O)NC[C@H](O)[C@@]23CC[C@]4(C)[C@H](CC[C@@H]5[C@@]6(C)CC[C@H](OC(=O)[C@H]7C[C@@H](C(=O)O)C7(C)C)C(C)(C)[C@@H]6CC[C@]54C)C2=C(C(C)C)C(=O)C3)n1	92HT599	-	MT-2	<1 µM
CC1([C@@H]2CC[C@]3(NC[C@@H](CF)N4CCS(=O)(=O)CC4)CC[C@]4(C)[C@H](CC[C@@H]5[C@@]6(C)CC[C@H](OC(=O)[C@H]7C[C@@H](C(=O)O)C7(C)C)C(C)(C)[C@@H]6CC[C@]54C)[C@@H]23)CC1	NL4-3	-	MT-4	0.01001–0.05 µM
CCC1=C(C(=O)OCC2CCCCC2)[C@H](c2ccc(OC(=O)c3ccncc3)cc2)NC(=O)N1	-	-	CEM	≤1 µM
CC(C)C1=C2[C@H]3CC[C@@H]4[C@@]5(C)CC[C@H](OC(=O)[C@H]6C[C@@H](C(=O)O)C6(C)C)C(C)(C)[C@@H]5CC[C@@]4(C)[C@]3(C)CC[C@@]2(CC(=O)NC(F)(CCN)CNC(=O)c2ccc(Cl)cc2)CC1=O	92HT599	-	MT-2	<1 µM
CCC(=O)C1=C(CCC2CCCCCC2)NC(=O)N[C@H]1c1ccc(OC(C)=O)c(Cl)c1	-	-	CEM	>5 µM
CC(C)C1=C2[C@H]3CC[C@@H]4[C@@]5(C)CC[C@H](OC(=O)[C@H]6C[C@@H](C(=O)O)C6(C)C)C(C)(C)[C@@H]5CC[C@@]4(C)[C@]3(C)CC[C@@]2([C@@H](O)CNCC(C)(C)NC(=O)c2ccccn2)CC1=O	92HT599	-	MT-2	<1 µM
CCC1=C(c2nc(C3CCCCC3)cs2)C(c2ccccc2OC)NC(=O)N1	-	-	CEM	>5 µM
CC(C)C1=C2[C@H]3CC[C@@H]4[C@@]5(C)CC[C@H](OC(=O)[C@@H]6C[C@H](C(=O)O)C6(C)C)C(C)(C)[C@@H]5CC[C@@]4(C)[C@]3(C)CC[C@@]2(CC(=O)NCc2ccc(Cl)cc2)CC1=O	92HT599	-	MT-2	<1 µM
CC1=C[C@H]2[C@@]3(O)[C@H](C)[C@@H](OC(=O)CCCCCCCCCCBr)[C@]4(OC(=O)CCCCCCCCCCBr)[C@H]([C@@H]3C=C(CO)C[C@]2(O)C1=O)C4(C)C	IIIB	-	C8166	80.85 µM
CCC1=C(C(=O)OCC2CCCCC2)C(c2cc(N)ccc2F)NC(=O)N1	-	-	CEM	≤1 µM
CC(C)S(=O)(=O)N1CCN([C@@H](C)CN[C@]23CC[C@@H](C4(C)CC4)[C@@H]2[C@H]2CC[C@@H]4[C@@]5(C)CC[C@H](OC(=O)[C@H]6C[C@@H](C(=O)O)C6(C)C)C(C)(C)[C@@H]5CC[C@@]4(C)[C@]2(C)CC3)CC1	NL4-3	-	MT-4	<0.01 µM
CC(C)C1=C2[C@H]3CC[C@@H]4[C@@]5(C)CC[C@H](OC(=O)[C@H]6C[C@@H](C(=O)O)C6(C)C)C(C)(C)[C@@H]5CC[C@@]4(C)[C@]3(C)CC[C@@]2(CC(=O)NCC(C)(C)NC(=O)c2ccc(N3CCN(C)CC3)cc2)CC1=O	92HT599	-	MT-2	<1 µM
CCC1=C(C(=O)OCC2CCCCC2)C(c2ccc(O)c(F)c2)NC(=O)N1	-	-	CEM	≤1 µM

The first 3 rows once more:

| structure | strain or isolate | changes | cell line | result |
|---|---|---|---|---|
| COCCOCC(=O)O[C@H](C)[C@@H](CN[C@]12CC[C@@H](C3(C)CC3)[C@@H]1[C@H]1CC[C@@H]3[C@@]4(C)CC[C@H](OC(=O)[C@H]5C[C@@H](C(=O)O)C5(C)C)C(C)(C)[C@@H]4CC[C@@]3(C)[C@]1(C)CC2)N1CCS(=O)(=O)CC1 | NL4-3 | V7A | MT-4 | <0.05 µM |
| CCC1=C(C(=O)OCC2CCCCC2)[C@H](c2cccc(OC(=O)[C@H](C)[NH3+])c2)NC(=O)N1 | - | - | CEM | ≤1 µM |
| C[C@H](O)[C@H](CN[C@]12CC[C@@H](C3(C)CC3)[C@@H]1[C@H]1CC[C@@H]3[C@@]4(C)CC[C@H](OC(=O)[C@H]5C[C@@H](C(=O)O)C5(C)C)C(C)(C)[C@@H]4CC[C@@]3(C)[C@]1(C)CC2)N1CCS(=O)(=O)CC1 | NL4-3 | - | MT-2 | <0.01 µM |